Measured values from several laboratories, pooled; numbers as filed in NIAID ChemDB.

All rows: tests in culture; organism: Mycobacterium tuberculosis

MIC50, MIC90 and the like: level of inhibition, or share of isolates inhibited.

SMILES	method	dose	strain	changes	endpoint	value
O=S(=O)(NC1CCN(Cc2ccncc2)CC1)c1ccc(-c2ccccc2)cc1					MIC	6.25 µM
NS(=O)(=O)C1CCCCC1C(=O)NNC(=O)C(=O)Nc1nc(=S)[nH][nH]1	BACTEC		H37Rv		MIC bound	>12.5 µg/mL
COc1ccc2c(Nc3ccc(Oc4ccc(OC(F)(F)F)cc4)cc3)ncnc2c1	luminescence		H37Rv		MIC50	>20 µM
N[C@@H]1CN(c2c(F)cc3c(=O)c(C(=O)O)cn([C@@H]4C[C@@H]4F)c3c2Cl)CC12CC2	resazurin		Clinical strain	XDR	MIC50	0.25 µg/mL
CCCCCCCOc1ccc(NC(=O)OCC[NH+]2CCCC2)cc1			My 331/88		MIC	32 µM
NNC(=O)c1ccncc1			23 strains (rifampin- isoniazid-susceptible)		MIC50	≤0.05 µg/mL
Fc1ccc2c(Nc3ccc(N4CCN(c5ccc(C(F)(F)F)cc5)CC4)c(F)c3)ncnc2c1	luminescence		H37Rv		MIC50	>50 µM
O=C1c2ccccc2-c2nc3ccccc3nc21	resazurin		H37Rv		MIC bound	<6.25 µg/mL
NNC(=O)c1ccncc1	resazurin		H37Rv		MIC	0.156 µg/mL
Cc1ccc(-n2c(SCc3ccc(Cl)cc3Cl)nnc2-c2ccc(N)cc2)cc1			H37Rv		EC50	>6.25 µg/mL
CCCCCCCCOc1ccccc1NC(=O)OCC[NH+]1CCCC1			My 331/88		MIC	16 µM
CCOc1cc(/C=N/N=c2\scc(-c3cc4ccccc4oc3=O)n2C2CCCCC2)ccc1O			H37Rv		MIC	12.5 µg/mL
Clc1ccc(CCNc2ncnc3ccsc23)cc1Cl	luminescence		H37Rv		MIC50	>50 µM
COC(=O)C(Cc1cc(OC)c(OC)c(OC)c1)(NC(=O)c1ccccc1)P(=O)(OC)OC	BACTEC	12.5 µg/mL	H37Rv		inhibition	27%
CO[C@H]1/C=C/O[C@@]2(C)Oc3c(C)c(O)c4c(O)c(c(/C=N/N5CCN(C)CC5)c(O)c4c3C2=O)NC(=O)/C(C)=C\C=C\[C@H](C)[C@H](O)[C@@H](C)[C@@H](O)[C@@H](C)[C@H](OC(C)=O)[C@@H]1C			Clinical isolate 15		MIC	0.5 µg/mL
Nc1ccc(-c2nnc(SCc3ccccc3)n2-c2ccccc2)cc1		6.25 µg/mL	H37Rv		inhibition	<50%
CCCCOc1ccc(NC(=O)OCC[NH+]2CCCC2)cc1			My 331/88		MIC	250 µM
CC1COc2c(N3CCN(C)CC3)c(F)cc3c(=O)c(C(=O)O)cn1c23			44 isolates (resistant)		Mean MIC	1.171 µg/mL
C=C(C)/C=C/[C@]12C[C@H](C)[C@H]3CC[C@](C)(NC=O)[C@@H](CC[C@H]1C)[C@@H]32			H37Rv		MIC	32 µg/mL
Fc1ccc(C2CCN(c3ccc(Nc4ncnc5cc(F)ccc45)cc3)CC2)cc1	luminescence		H37Rv		MIC50	>20 µM
CS/C(Nc1ccccc1)=C1\CCCn2c1nc1ccccc1c2=O	resazurin	6.25 µg/mL	H37Rv		inhibition	49%
Nc1ccc(C(=O)O)c(O)c1			Clinical isolate 10		MIC	0.5 µg/mL
O=C(OCc1cnccn1)c1cnccn1	BACTEC		H37Rv		MIC	≥12.5 µg/mL
NCCCN1c2ccccc2Sc2ccccc21	resazurin		H37Rv		MIC	0.312 µg/mL
C[C@H]1COc2c(N3CCN(C)CC3)c(F)cc3c(=O)c(C(=O)O)cn1c23			Strain 34		MIC	0.125 µg/mL
Brc1ccc(-n2cc(CSC3c4ccccc4-c4ccccc43)nn2)cc1	broth dilution		Specimen 192		MIC99	57.55 µM
Fc1ccc2c(Nc3ccc(-c4ccc(C(F)(F)F)cc4)cc3)ncnc2c1	luminescence		H37Rv		MIC50	>10 µM
Nc1ccc2cc3[nH]c4cc(N)ccc4c3nc2c1	resazurin		H37Rv		MIC bound	<6.25 µg/mL
NNC(=O)c1ccncc1	broth dilution		H37Rv		MIC	0.66 µM
O=c1oc2ccc(Br)cc2cc1-c1cs/c(=N/N=C/c2ccc(Cl)cc2)n1C1CCCCC1			H37Rv		MIC	>12.5 µg/mL
COc1ccc2[nH]c(C(O)(Cc3cccnc3)Cc3cccnc3)cc2c1	resazurin	6.25 µg/mL	H37Rv		inhibition	-3%
CCCCOc1cccc(NC(=O)OCCN2CCCCCC2)c1			My 331/88		MIC	32 µM
CCOc1nc(N)c(C(N)=O)cc1C#N	BACTEC		H37Rv		MIC	≥12.5 µg/mL
Cc1cc(-n2cccn2)ccc1S(=O)(=O)NC1CCN(Cc2ccncc2)CC1			Clinical isolate		MIC	1.6–6.3 µM
Fc1ccc2c(Nc3ccc(Oc4ccc(C(F)(F)F)cc4)cc3)ncnc2c1	luminescence		H37Rv		MIC50	>20 µM
CCOc1c2c(nn(C)c1=O)Oc1ccccc1N2CCCN1CCOCC1	BACTEC		H37Rv		MIC bound	>12.5 µg/mL
COCCN(C1CCN(CC2C(c3ccccc3)=Nc3c(C(C)C)cccc32)C1)S(C)(=O)=O					MIC	12.5 µM
CO[C@H]1/C=C/O[C@@]2(C)Oc3c(C)c(O)c4c(O)c(c5c(c4c3C2=O)NC2(CCN(CC(C)C)CC2)N=5)=NC(=O)/C(C)=C\C=C\[C@H](C)[C@H](O)[C@@H](C)[C@@H](O)[C@@H](C)[C@H](OC(C)=O)[C@@H]1C			Strain 71		MIC	0.5 µg/mL
Fc1ccc2c(Nc3ccc(Oc4cccc(C(F)(F)F)c4)cc3)ncnc2c1	luminescence		H37Rv		MIC50	>20 µM
CC(C)(C)OC(=O)NC(Cc1ccccc1)C(=O)NC(CO)C(=O)NN	BACTEC		H37Rv		MIC bound	>12.8 µg/mL
CCCCn1c(-c2cc3ccccc3oc2=O)cs/c1=N\N=C\c1ccc(Cl)cc1			H37Rv		EC50	<12.5 µg/mL
Cc1ccc(-n2c(SCc3ccc(Cl)cc3Cl)nnc2-c2ccc(N=Cc3ccc(O)cc3)cc2)cc1		6.25 µg/mL	H37Rv		inhibition	50–59%
CC(=O)Nc1oc(C)c(C)c1S(=O)(=O)c1ccc(Cl)cc1	resazurin		H37Rv		MIC bound	>6.25 µg/mL
Fc1ccc(C=Nc2ccc(-c3nnc(SCc4ccc(Cl)cc4Cl)n3-c3ccccc3)cc2)cc1			H37Rv		EC50	>6.25 µg/mL
CC(=O)NC[C@H]1CN(c2ccc(N3CCN(c4ccc([N+](=O)[O-])s4)CC3)c(F)c2)C(=O)O1			35801		MIC	≤0.125 µg/mL
O=C1c2ccccc2C(=O)c2c1ccc1c2OCO1	BACTEC	12.5 µg/mL	H37Rv		inhibition	9%
NNC(=O)c1ccncc1			Clinical isolate 8		MIC	5 µg/mL
CC(=O)NC[C@H]1CN(c2ccc(N3CCOCC3)c(F)c2)C(=O)O1			Strain 23		MIC	0.25 µg/mL
FC(F)(F)Oc1ccc(CCNc2ncnc3cc(C(F)(F)F)ccc23)cc1	luminescence		H37Rv		MIC50	>20 µM
NC1[C@H]2CN(c3nc4c(cc3F)c(=O)c(C(=O)O)cn4-c3ccc(F)cc3F)C[C@@H]12			206 isolates (susceptible)		MIC50	32 µg/mL
Fc1ccccc1-n1cc(CNC2c3ccccc3-c3ccccc32)nn1	broth dilution		H37Rv		MIC99	281 µM
CC(C)=CCC/C(C)=C/CNc1ncnc2ccoc12	luminescence		H37Rv		MIC50	>20 µM
COc1ccc(NC(=O)OCC[NH+]2CCCC2)cc1			My 331/88		MIC	>1000 µM
CCCCCCCCCCOc1ccc(NC(=O)OCC[NH+]2CCCC2)cc1			My 331/88		MIC	16 µM
Fc1ccc2c(Nc3ccc(Oc4ccc(C(F)(F)F)cc4)cc3)nc(C(F)(F)F)nc2c1	luminescence		H37Rv		MIC50	>50 µM
CCCCCOc1ccccc1NC(=O)OCC[NH+]1CCCC1			My 331/88		MIC	125 µM
O=NC1=C(O)/C(=N/O)CCC1=O	BACTEC		H37Rv		MIC bound	>12.5 µg/mL
O=S(=O)(c1ccc(OC(F)(F)F)cc1)C1CCN(c2ccc(Nc3ncnc4ccccc34)cc2)CC1	luminescence		H37Rv		MIC50	>50 µM
O=C1c2ccccc2C(=O)c2c1oc1c2ccc2ccccc21	BACTEC		H37Rv		MIC bound	>12.5 µg/mL
CCCCCCCCCOc1cccc(NC(=O)OCCN2CCCCC2)c1			My 331/88		MIC	16 µM
c1ccc(CCNc2ncnc3ccccc23)cc1	luminescence		H37Rv		MIC50	>10 µM
O=C1CSC(c2ccc([N+](=O)[O-])cc2)N1c1nncs1	BACTEC	12.5 µg/mL	H37Rv		inhibition	51%
Clc1ccc(CSc2nnc(-c3ccc(N=Cc4c(Cl)cccc4Cl)cc3)n2-c2ccccc2)c(Cl)c1			H37Rv		EC50	<6.25 µg/mL
Cc1c(N2C[C@@H](N)C3(CC3)C2)c(F)c(N)c2c(=O)c(C(=O)O)cn(C3CC3)c12			27 strains (levofloxacin-susceptible)		MIC50	0.78 µg/mL
Fc1ccc2c(Nc3ccccc3Oc3ccc(C(F)(F)F)cc3)ncnc2c1	luminescence		H37Rv		MIC50	>50 µM
COC(=O)C(CO)NC(=O)C(Cc1cnc[nH]1)N(C(=O)OCc1ccccc1)C(=O)OCc1ccccc1	BACTEC		H37Rv		MIC bound	>12.8 µg/mL
CO[C@H]1/C=C/O[C@@]2(C)Oc3c(C)c(O)c4c(O)c(c5c(c4c3C2=O)NC2(CCN(CC(C)C)CC2)N=5)=NC(=O)/C(C)=C\C=C\[C@H](C)[C@H](O)[C@@H](C)[C@@H](O)[C@@H](C)[C@H](OC(C)=O)[C@@H]1C			1620-6 (RIF-S)		MIC	0.03 µg/mL
CCCCOc1cccc(NC(=O)OCCN(C)C)c1			My 331/88		MIC	125 µM
FC(F)(F)c1ccnc(Oc2ccc(Nc3ncnc4ccccc34)cc2)n1	luminescence		H37Rv		MIC50	>20 µM
CC1(C)COC2(CC(C)(C)OC2(C)C)OC1	BACTEC	12.5 µg/mL	H37Rv		inhibition	4%
O=c1oc2ccc(Br)cc2cc1-c1cs/c(=N\N=C\c2cc(Br)ccc2O)n1C1CCCCC1		12.5 µg/mL	H37Rv		inhibition	20%
FC(F)(F)c1ccc(-n2cc(CSC3c4ccccc4-c4ccccc43)nn2)cc1	broth dilution		H37Rv		MIC99	>236 µM
O=c1oc2ccccc2cc1-c1cs/c(=N\N=C\c2ccccc2[N+](=O)[O-])n1C1CCCCC1			H37Rv		EC50	>12.5 µg/mL
CO[C@H]1/C=C/O[C@@]2(C)Oc3c(C)c(O)c4c(O)c(c(/C=N/N5CCN(C)CC5)c(O)c4c3C2=O)NC(=O)/C(C)=C\C=C\[C@H](C)[C@H](O)[C@@H](C)[C@@H](O)[C@@H](C)[C@H](OC(C)=O)[C@@H]1C			InhA OE		MIC	0.01 µM
C[N+](C)=c1ccc2nc3c(cc(NCCCNc4cc5oc6cc(=[N+](C)C)ccc-6nc5c5ccccc45)c4ccccc43)oc-2c1.[Cl-].[Cl-]	BACTEC		H37Rv		MIC bound	≤12.5 µg/mL
C=CCn1c(SCc2ccc(Cl)cc2Cl)nnc1-c1ccc(N=Cc2ccc(F)cc2)cc1		6.25 µg/mL	H37Rv		inhibition	<50%
COC(=O)c1ccc2c(Nc3ccc(Oc4ccc(C(F)(F)F)cc4)cc3)ncnc2c1	luminescence		H37Rv		MIC50	>10 µM
NC(=O)NNc1nc2ccccc2c(=O)n1NC(=O)C(=O)Nc1ccc(Cl)cc1Cl	BACTEC		H37Rv		MIC bound	>12.5 µg/mL
FC(F)(F)Oc1ccc(Oc2ccc(Nc3ncnc4cc(Br)ccc34)cc2)cc1	luminescence		H37Rv		MIC50	>20 µM
NC(N)=NNC(=O)CCn1[nH]c(=O)c(Cl)c(Cl)c1=O	BACTEC	6.25 µg/mL	H37Rv		inhibition	7%
Cc1nc(Nc2ccc(Oc3ccc(C(F)(F)F)cc3)cc2)c2ccccc2n1	luminescence		H37Rv		MIC50	>20 µM
N[C@@H]1CN(c2c(F)cc3c(=O)c(C(=O)O)cn([C@@H]4C[C@@H]4F)c3c2Cl)CC12CC2			22 strains (rifampin- isoniazid-resistant)		MIC90	1.56 µg/mL

10 of the rows above, restated:

SMILES | method | dose | strain | changes | endpoint | value
Cc1ccc(-n2c(SCc3ccc(Cl)cc3Cl)nnc2-c2ccc(N)cc2)cc1 |  |  | H37Rv |  | EC50 | >6.25 µg/mL
Fc1ccc2c(Nc3ccc(Oc4ccc(C(F)(F)F)cc4)cc3)ncnc2c1 | luminescence |  | H37Rv |  | MIC50 | >20 µM
CCCCCCCCCOc1cccc(NC(=O)OCCN2CCCCC2)c1 |  |  | My 331/88 |  | MIC | 16 µM
Fc1ccc2c(Nc3ccc(N4CCN(c5ccc(C(F)(F)F)cc5)CC4)c(F)c3)ncnc2c1 | luminescence |  | H37Rv |  | MIC50 | >50 µM
CC(=O)NC[C@H]1CN(c2ccc(N3CCN(c4ccc([N+](=O)[O-])s4)CC3)c(F)c2)C(=O)O1 |  |  | 35801 |  | MIC | ≤0.125 µg/mL
CC1COc2c(N3CCN(C)CC3)c(F)cc3c(=O)c(C(=O)O)cn1c23 |  |  | 44 isolates (resistant) |  | Mean MIC | 1.171 µg/mL
CO[C@H]1/C=C/O[C@@]2(C)Oc3c(C)c(O)c4c(O)c(c5c(c4c3C2=O)NC2(CCN(CC(C)C)CC2)N=5)=NC(=O)/C(C)=C\C=C\[C@H](C)[C@H](O)[C@@H](C)[C@@H](O)[C@@H](C)[C@H](OC(C)=O)[C@@H]1C |  |  | 1620-6 (RIF-S) |  | MIC | 0.03 µg/mL
CCCCn1c(-c2cc3ccccc3oc2=O)cs/c1=N\N=C\c1ccc(Cl)cc1 |  |  | H37Rv |  | EC50 | <12.5 µg/mL
O=c1oc2ccc(Br)cc2cc1-c1cs/c(=N/N=C/c2ccc(Cl)cc2)n1C1CCCCC1 |  |  | H37Rv |  | MIC | >12.5 µg/mL
O=C1c2ccccc2C(=O)c2c1oc1c2ccc2ccccc21 | BACTEC |  | H37Rv |  | MIC bound | >12.5 µg/mL

Inhibition is in % at the dose shown (toxicity tests: loss of growth or viability). An empty or dashed field is not shown. Conditions beyond the fields shown may differ between rows. ECn is the concentration giving n% inhibition of infection, replication or growth. a–b is a range or a potency band. MIC bound comes from a single tested concentration.